Results of unrelated studies side by side (data: NIAID ChemDB).

All rows: whole-cell or culture tests; species: Mycobacterium marinum

An empty or dashed field is not shown. Conditions beyond the fields shown may differ between rows. A number after MIC or MFC names an inhibition level or a share of isolates.

SMILES	strain or isolate	read by	measure	result
C=C1C(=O)[C@@]23C(=O)O[C@H]4CCC(C)(C)[C@H]5C(=O)OC[C@@]45[C@@H]2CC[C@@H]1[C@H]3OC(=O)c1cc2ccccc2[nH]1	ATCC 927	resazurin	MIC	8 µg/mL
O=c1cc(-c2ccccc2)c2ccc(Cl)cc2o1	ATCC 927	resazurin	MIC90	>100 µg/mL
CCCCCCCCCCCCCCCCCOC(=O)NC(CCC(=O)O)(CCC(=O)O)CCC(=O)O	ATCC 927	-	MIC	216 µg/mL
C=C1C(=O)[C@@]23C(=O)O[C@H]4CCC(C)(C)[C@H]5[C@H](O)OC[C@@]45[C@@H]2CC[C@@H]1[C@H]3O	ATCC 927	resazurin	MIC	>64 µg/mL
C=C(C)COc1ccc(-c2n[nH]c(C(F)(F)F)c2-c2ccc(OC)cc2)c(O)c1	-	visual reading	MIC	>50 µg/mL
CCCCCCCCCCCCCCCCCCCCCC(=O)NC(CCC(=O)O)(CCC(=O)O)CCC(=O)O	ATCC 927	-	MIC	54 µg/mL
O=C(N[C@H](C(=O)Oc1ccc(Cl)cc1C(=O)Nc1ccc(Br)cc1)C1CCCCC1)OCc1ccccc1	CAMP 5644	broth dilution	MIC100	26.06 µM
Oc1ccc(-c2n[nH]c(C(F)(F)F)c2-c2ccc(Cl)cc2)c(O)c1	-	visual reading	MIC	>50 µg/mL
CCCCCCCCCCCCCCCCCCCCNC(=O)NC(CCC(=O)O)(CCC(=O)O)CCC(=O)O	ATCC 927	-	MIC	36 µg/mL
C=C1C(=O)[C@@]23C(=O)O[C@H]4CCC(C)(C)[C@H]5[C@H](O)OC[C@@]45[C@@H]2CC[C@@H]1[C@H]3OC(=O)c1cc2ccccc2[nH]1	ATCC 927	resazurin	MIC	8 µg/mL
CC(C)[C@H](NC(=O)OCc1ccccc1)C(=O)Oc1ccc(Cl)cc1C(=O)Nc1ccc([N+](=O)[O-])cc1	CAMP 5644	broth dilution	MIC100	7.6 µM
COc1ccc(-c2c(-c3ccc(OCc4ccc(F)cc4)cc3O)n[nH]c2C(F)(F)F)cc1	-	visual reading	MIC	>50 µg/mL
CCCCCCCCCCC(CCCCCCCCCC)OC(=O)NC(CCC(=O)O)(CCC(=O)O)CCC(=O)O	ATCC 927	-	MIC	108 µg/mL
COc1ccc(-c2c(-c3ccc(OCC(=O)NN)cc3O)n[nH]c2C(F)(F)F)cc1	-	visual reading	MIC	>50 µg/mL
C=C1C(=O)[C@@]23C(=O)O[C@H]4CCC(C)(C)[C@H]5C(=O)OC[C@@]45[C@@H]2CC[C@@H]1[C@H]3OC(=O)c1ccccc1	ATCC 927	resazurin	MIC	8 µg/mL
CCCCCCCCC(CCCCCCCC)OC(=O)NC(CCC(=O)O)(CCC(=O)O)CCC(=O)O	ATCC 927	-	MIC	283 µg/mL

Repeating the final 2 entries:

SMILES,strain or isolate,read by,measure,result
C=C1C(=O)[C@@]23C(=O)O[C@H]4CCC(C)(C)[C@H]5C(=O)OC[C@@]45[C@@H]2CC[C@@H]1[C@H]3OC(=O)c1ccccc1,ATCC 927,resazurin,MIC,8 µg/mL
CCCCCCCCC(CCCCCCCC)OC(=O)NC(CCC(=O)O)(CCC(=O)O)CCC(=O)O,ATCC 927,-,MIC,283 µg/mL